# ChEMBL document CHEMBL1275243 (2010)
# Key:
# Bacillus anthracis [1] = assay: Antimicrobial activity against Bacillus anthracis A0419 assessed as change in fluorescence threshold cycle at. 03 ug/ml after 4 hrs by real-time PCR viability assay relative to control
# Bacillus anthracis [2] = assay: Antimicrobial activity against Bacillus anthracis A0193 assessed as change in fluorescence threshold cycle at. 03 ug/ml after 4 hrs by real-time PCR viability assay relative to control
# Bacillus anthracis [3] = assay: Antimicrobial activity against Bacillus anthracis A0102 assessed as change in fluorescence threshold cycle at. 03 ug/ml after 4 hrs by real-time PCR viability assay relative to control
# Bacillus anthracis [4] = assay: Antimicrobial activity against Bacillus anthracis A0193 assessed as change in fluorescence threshold cycle at 8 ug/ml after 4 hrs by real-time PCR viability assay relative to control
# Bacillus anthracis [5] = assay: Antimicrobial activity against Bacillus anthracis A0248 assessed as change in fluorescence threshold cycle at 2 ug/ml after 4 hrs by real-time PCR viability assay relative to control
# Bacillus anthracis [6] = assay: Antimicrobial activity against Bacillus anthracis A0264 assessed as change in fluorescence threshold cycle at 0.015 ug/ml after 4 hrs by real-time PCR viability assay relative to control
# Bacillus anthracis [7] = assay: Antimicrobial activity against pXO1-positive and pXO2 negative Bacillus anthracis 34F2 assessed as change in fluorescence threshold cycle at 0.015 ug/ml after 4 hrs by real-time PCR viability assay relative to control
# Bacillus anthracis [8] = assay: Antimicrobial activity against Bacillus anthracis A0188 assessed as change in fluorescence threshold cycle at. 03 ug/ml after 4 hrs by real-time PCR viability assay relative to control
# Bacillus anthracis [9] = assay: Antimicrobial activity against Bacillus anthracis A0149 assessed as change in fluorescence threshold cycle at 0.06 ug/ml after 4 hrs by real-time PCR viability assay relative to control
# Bacillus anthracis [10] = assay: Antimicrobial activity against Bacillus anthracis A0293 assessed as change in fluorescence threshold cycle at 0.015 ug/ml after 4 hrs by real-time PCR viability assay relative to control
# Bacillus anthracis [11] = assay: Antimicrobial activity against Bacillus anthracis A03768 assessed as change in fluorescence threshold cycle at 4 ug/ml after 4 hrs by real-time PCR viability assay relative to control
# Bacillus anthracis [12] = assay: Antimicrobial activity against Bacillus anthracis A0248 assessed as change in fluorescence threshold cycle at 0.5 ug/ml after 4 hrs by real-time PCR viability assay relative to control
# Bacillus anthracis [13] = assay: Antimicrobial activity against Bacillus anthracis A0188 assessed as change in fluorescence threshold cycle at 0.12 ug/ml after 4 hrs by real-time PCR viability assay relative to control
# Bacillus anthracis [14] = assay: Antimicrobial activity against Bacillus anthracis A0465 assessed as change in fluorescence threshold cycle at 0.015 ug/ml after 4 hrs by real-time PCR viability assay relative to control
# Bacillus anthracis [15] = assay: Antimicrobial activity against Bacillus anthracis A0248 assessed as change in fluorescence threshold cycle at 4 ug/ml after 4 hrs by real-time PCR viability assay relative to control
# Bacillus anthracis [16] = assay: Antimicrobial activity against Bacillus anthracis A0193 assessed as change in fluorescence threshold cycle at 4 ug/ml after 4 hrs by real-time PCR viability assay relative to control
# Bacillus anthracis [17] = assay: Antimicrobial activity against Bacillus anthracis A0419 assessed as change in fluorescence threshold cycle at 2 ug/ml after 4 hrs by real-time PCR viability assay relative to control
# Bacillus anthracis [18] = assay: Antimicrobial activity against Bacillus anthracis A0293 assessed as change in fluorescence threshold cycle at 16 ug/ml after 4 hrs by real-time PCR viability assay relative to control
# Bacillus anthracis [19] = assay: Antimicrobial activity against Bacillus anthracis 240 assessed as change in fluorescence threshold cycle at 4 ug/ml after 4 hrs by real-time PCR viability assay relative to control
# Bacillus anthracis [20] = assay: Antimicrobial activity against Bacillus anthracis A03768 assessed as change in fluorescence threshold cycle at 64 ug/ml after 4 hrs by real-time PCR viability assay relative to control
# Bacillus anthracis [21] = assay: Antimicrobial activity against Bacillus anthracis A0488 assessed as change in fluorescence threshold cycle at 64 ug/ml after 4 hrs by real-time PCR viability assay relative to control
# Bacillus anthracis [22] = assay: Antimicrobial activity against Bacillus anthracis A0462 assessed as change in fluorescence threshold cycle at 64 ug/ml after 4 hrs by real-time PCR viability assay relative to control
# Bacillus anthracis [23] = assay: Antimicrobial activity against Bacillus anthracis 240 assessed as change in fluorescence threshold cycle at 32 ug/ml after 4 hrs by real-time PCR viability assay relative to control
# Bacillus anthracis [24] = assay: Antimicrobial activity against Bacillus anthracis A0465 assessed as change in fluorescence threshold cycle at 64 ug/ml after 4 hrs by real-time PCR viability assay relative to control
# Bacillus anthracis [25] = assay: Antimicrobial activity against Bacillus anthracis A0193 assessed as change in fluorescence threshold cycle at 32 ug/ml after 4 hrs by real-time PCR viability assay relative to control
# Bacillus anthracis [26] = assay: Antimicrobial activity against Bacillus anthracis A0193 assessed as change in fluorescence threshold cycle at 64 ug/ml after 4 hrs by real-time PCR viability assay relative to control
# Bacillus anthracis [27] = assay: Antimicrobial activity against Bacillus anthracis A0149 assessed as change in fluorescence threshold cycle at 64 ug/ml after 4 hrs by real-time PCR viability assay relative to control
# Bacillus anthracis [28] = assay: Antimicrobial activity against Bacillus anthracis A0248 assessed as change in fluorescence threshold cycle at 64 ug/ml after 4 hrs by real-time PCR viability assay relative to control
Compound,deltaCT (Bacillus anthracis [4]),deltaCT (Bacillus anthracis [5]),deltaCT (Bacillus anthracis [9]),deltaCT (Bacillus anthracis [11]),deltaCT (Bacillus anthracis [12]),deltaCT (Bacillus anthracis [13]),deltaCT (Bacillus anthracis [15]),deltaCT (Bacillus anthracis [16]),deltaCT (Bacillus anthracis [17]),deltaCT (Bacillus anthracis [18]),further results
O=C(O)c1cn(C2CC2)c2cc(N3CCNCC3)c(F)cc2c1=O [CIPROFLOXACIN],7.57,6.69,8.71,7.41,0.53,8.03,7.36,1.99,7.03,7.48,deltaCT (Bacillus anthracis [1]): 2.3; deltaCT (Bacillus anthracis [2]): 8.71; deltaCT (Bacillus anthracis [3]): 8.49; deltaCT (Bacillus anthracis [6]): 8.93; deltaCT (Bacillus anthracis [7]): 0.61; deltaCT (Bacillus anthracis [8]): 5.34; deltaCT (Bacillus anthracis [10]): 5.87; deltaCT (Bacillus anthracis [14]): 0.54
C[C@H]1c2cccc(O)c2C(=O)C2=C(O)[C@]3(O)C(=O)C(C(N)=O)=C(O)[C@@H](N(C)C)[C@@H]3[C@@H](O)[C@@H]21.O [DOXYCYCLINE],8.23,7.29,7.2,8.1,7.52,6.8,8.39,8.64,9.27,2.46,deltaCT (Bacillus anthracis [19]): 8.32; deltaCT (Bacillus anthracis [20]): 8.22; deltaCT (Bacillus anthracis [21]): 8.13; deltaCT (Bacillus anthracis [22]): 7.83; deltaCT (Bacillus anthracis [23]): 6.37; deltaCT (Bacillus anthracis [24]): 8.26; deltaCT (Bacillus anthracis [25]): 7.7; deltaCT (Bacillus anthracis [26]): 7.97; deltaCT (Bacillus anthracis [27]): 8.6; deltaCT (Bacillus anthracis [28]): 7.7
